From paper PMC3567243 (Molecular Microbiology, 2012) come the findings set out here.

Usually Km stands for the concentration of substrate that gives half-maximal velocity. The kcat/Km is the second-order rate constant that governs catalysis at low substrate concentration.

This data set concerns CC1=CC(=O)c2ccccc2C1=O. Nature of the data set: purified protein.

For (Mycobacterium tuberculosis H37Rv), the Km is 47.14 ± 9.87 µM and the kcat/Km is 6670 M⁻¹ s⁻¹.
